Anti-infective test results gathered from many reports (values: NIAID ChemDB through PubChem).

Shared fields: growth or infection tests; agent: Candida albicans

MIC50, MIC90 and the like: level of inhibition, or share of isolates inhibited. Rows are shuffled and stem from different studies. ECn is the concentration giving n% inhibition of infection, replication or growth. a–b is a range or a potency band. Blank or dashed fields: not listed here.

SMILES | strain | read by | endpoint | setting | value
CC(C)Cc1ccc(CC2=Cc3[nH][nH]c(=O)c3C(c3ccccc3)C2)cc1 | - | agar diffusion | MIC | - | 50 µg/mL
CS/C(N)=N/NC(=O)c1ccc(Cl)cc1Cl | - | - | MIC | - | >100 µg/mL
CCCCCCCC/C=C\CCCCCCCC(=O)N[C@H](C(=O)N1C[C@H](C)C[C@H]1C(=O)N[C@H](C(=O)N[C@@H](CCO)C(=O)N[C@@H](C)CO)C(C)C)[C@@H](C)O | MY1055 | broth dilution / visual reading | MIC | - | >32 µg/mL
C[C@@H]1C[C@@H](O)[C@H]2C3=C(C[C@H](O)[C@@]2(O)C1)C(=O)c1c(O)cccc1C3=O | - | resazurin | EC50 | - | 46.2 µM
Cc1c2n(c3ccccc13)CCNC2c1ccccc1 | - | - | MIC90 | - | 125 µg/mL
C=CCS/C(N)=N/NC(=O)c1cc(OC)c(OC)c(OC)c1 | - | - | MIC | - | >100 µg/mL
CC(C)CCC[C@@H](C)[C@H]1CCC2C3C(=O)CC4CC(=O)CC[C@]4(C)C3CC[C@@]21C | CIP 1663-86 | - | MIC50 | - | >50 µg/mL
O=C(CSc1nnc(-c2ccc3ncccc3c2)o1)Nc1ccc(Br)cc1 | - | agar | MIC | - | 100 µg/mL
[C-]#[N+][C@]12C(=C)C(C)(C)c3[nH]c4cccc5c4c3[C@]1(O)[C@H](CC[C@]2(C)C=C)C5(C)C | - | broth dilution | MIC | - | 15.3 µM
COc1ccc(C(=O)/C=C/c2ccccn2)cc1 | - | - | MIC | - | 15.9 µg/mL
OC(CN1CCN(c2ccc(OCc3ccncc3)cc2)CC1)(Cn1cncn1)c1ccc(F)cc1F | ATCC76615F55 | - | MIC80 | - | 0.25 µg/mL
O=C(CSc1nnc(-c2ccc3ncccc3c2)o1)Nc1nc2ccc([N+](=O)[O-])cc2s1 | - | agar | MIC | - | 100 µg/mL
CCCc1ncc(C(N)=O)nc1SC | ATCC 44859 | - | MIC | - | >31.25 µg/mL
COc1ccc(C=CC2=CC(=O)Cc3cc(OCCCn4ccnc4)ccc32)cc1 | ATCC 24433 | - | MIC | - | >200 µg/mL
C[C@@H](n1ccnn1)[C@](O)(Cn1cncn1)c1ccc(F)cc1F | TA | - | MIC | - | >100 µg/mL
Clc1ccccc1C(c1ccccc1)(c1ccccc1)n1ccnc1 | Clinical isolates | - | MIC | 48 h | 2 µg/mL
C[C@H]1[C@H](O)[C@@H](C)/C=C/C=C/C=C/C=C/C=C/C=C/C=C/[C@H](O[C@@H]2O[C@H](C)[C@@H](O)[C@H](N)[C@@H]2O)C[C@@H]2O[C@](O)(C[C@@H](O)C[C@@H](O)CC[C@H](O)[C@@H](O)C[C@@H](O)CC(=O)O[C@H]1C)C[C@H](O)[C@H]2C(=O)O | 10 isolates | - | MIC | - | 0.25–0.5 µg/mL
CCC(C)CCCCCC(C)CCCCCCC(C)OC1C(=O)c2c(O)cc(O)cc2OC1c1ccc(O)cc1 | - | - | MIC | - | 250 µg/mL
CC(C)(C)C(=O)OCC1C=C(c2ccc(Cl)c(Cl)c2)C(=O)O1 | ATCC 90028 | - | MIC50 | - | 2 µg/mL
CC(C)CCC[C@@H](C)[C@H]1CCC2C3C(CC[C@@]21C)[C@@]1(C)CCC(=O)CC1C[C@H]3O | CIP 1663-86 | - | MIC50 | - | >50 µg/mL
CCCCCS(=O)(=O)[C@H](C)[C@](O)(Cn1cncn1)c1ccc(F)cc1F | KB-8 | - | MIC | - | 0.1 µg/mL
CC(=O)N1N=C(c2ccc(F)cc2)OC1c1ccc([N+](=O)[O-])o1 | ATCC 2091 | - | MIC | - | 8 µg/mL
CCCCCCCCCCCC[n+]1cccc(/C=C/C(=O)c2cccc(OC)c2)c1 | - | - | MIC | - | <6.8 µg/mL
CC(C)N=C(N)c1ccc2nc(-c3ccc4c(c3)Cc3cc(-c5nc6ccc(C(N)=NC(C)C)cc6[nH]5)ccc3-4)[nH]c2c1 | Isolate 17 (strain 12-99) | - | MIC | - | 1.56 µg/mL
CC(n1cnnn1)C(O)(Cn1cncn1)c1ccccc1F | TA | - | MIC | - | >100 µg/mL
Cc1ccc(C(=O)N/N=C(\N)SCc2cccc(Cl)c2)cc1 | - | - | MIC | - | >100 µg/mL
CCCCN(Cc1cn(Cc2ccccc2[N+](=O)[O-])nn1)CC(O)(Cn1cncn1)c1ccc(F)cc1F | Y0109 | - | MIC80 | - | 4 µg/mL
O=c1[nH][nH]c2c1C(c1ccccc1)CC(Cc1ccc3ccccc3c1)=C2 | - | agar diffusion | MIC | - | 200 µg/mL
O=C(N/N=C/c1cccc([N+](=O)[O-])c1)c1ccc(F)cc1 | ATCC 2091 | - | MIC | - | 125 µg/mL
CCCCc1ncc(C(N)=O)nc1SCC | ATCC 44859 | - | MIC | - | >31.25 µg/mL
CC(N1CCN(c2ccc(-n3cnnn3)cc2)C1=O)[C@@](O)(Cn1cncn1)c1ccc(F)cc1F | TIMM1756 | - | MIC | - | >16 µg/mL
CCCCN(Cc1cn(Cc2cccc(Br)c2)nn1)CC(O)(Cn1cncn1)c1ccc(F)cc1F | SC5314 | - | MIC80 | - | 4 µg/mL
CSc1nc(C(N)=S)cnc1C(C)(C)C | ATCC 44859 | - | MIC | - | >31.25 µg/mL
CCn1cc(-c2ccc(Cl)c(Cl)c2)c(=O)o1 | ATCC 90028 | - | MIC50 | - | >32 µg/mL
Cc1ccc(C(C)C)cc1 | H37 | - | MLC | - | >10 µg/mL
O=c1[nH][nH]c2c1C(c1ccc(Cl)cc1)CC(Cc1ccc3ccccc3c1)=C2 | - | agar diffusion | MIC | - | 100 µg/mL
CC(=O)N1N=C(c2ccc(F)cc2)OC1c1cccc([N+](=O)[O-])c1 | ATCC 2091 | - | MIC | - | 250 µg/mL
C[C@H](n1ccnn1)[C@@](O)(Cn1cncn1)c1ccccc1F | TA | - | MIC | - | >100 µg/mL
Cc1nn(CC(=O)NN)c(=O)n1NCc1ccccc1 | - | - | MIC | - | 250 µg/mL
CCCCN(Cc1cn(Cc2cccc(C#N)c2)nn1)CC(O)(Cn1cncn1)c1ccc(F)cc1F | Y0109 | - | MIC80 | - | 16 µg/mL
Clc1cc(Cl)c(OCC#CI)cc1Cl | 13 strains | - | MIC50 | - | 1.56 µg/mL
CCCCN(Cc1cn(Cc2ccc([N+](=O)[O-])cc2)nn1)CC(O)(Cn1cncn1)c1ccc(F)cc1F | Y0109 | - | MIC80 | - | 4 µg/mL
C=CCS/C(N)=N/NC(=O)c1ccc([N+](=O)[O-])cc1 | - | - | MIC | - | >100 µg/mL
O=C1C=C(C=Cc2ccc([N+](=O)[O-])cc2)c2ccc(OCCCn3ccnc3)cc2C1 | ATCC 24433 | - | MIC | - | 12.5 µg/mL
CC(n1cnnn1)C(O)(Cn1cncn1)c1ccc(F)cc1 | TA | - | MIC | - | >100 µg/mL
CC(C)Cc1ncc(C(N)=O)nc1Sc1ccccc1 | ATCC 44859 | - | MIC | - | >31.25 µg/mL
Cc1c2n(c3ccccc13)CCNC2c1ccc([N+](=O)[O-])cc1 | - | - | MIC90 | - | 250 µg/mL
CCCCN(Cc1cn(Cc2cccc([N+](=O)[O-])c2)nn1)CC(O)(Cn1cncn1)c1ccc(F)cc1F | SC5314 | - | MIC80 | - | 4 µg/mL
CCCc1ncc(C(N)=S)nc1Sc1ccccc1 | ATCC 44859 | - | MIC | - | >31.25 µg/mL
CC(N1CCN(c2ccc(-n3cnnn3)cc2)C1=O)[C@](O)(Cn1cncn1)c1ccc(F)cc1F | TIMM1756 | - | MIC | - | 0.03 µg/mL
CCOC(=O)c1nc(NC(=O)c2nc(NC(=O)c3cc([N+](=O)[O-])cn3C)cn2C)cn1C | SC5314 (clinical isolate) | broth dilution | MIC80 | - | >200 µg/mL
CC(C)CCC[C@@H](C)[C@H]1CCC2C3C(=O)C=C4C[C@@H](O)CC[C@]4(C)C3CC[C@@]21C | CIP 1663-86 | - | MIC50 | - | 1.5 µg/mL
COC(=O)C(C)NC1=C(O)c2ccccc2C(=O)C1=O | - | - | MIC | - | >50 µg/mL
CCCCSc1nc(C(N)=S)cnc1CCC | ATCC 44859 | - | MIC | - | >31.25 µg/mL
Cc1c2n(c3ccccc13)CCNC2c1ccc(F)cc1 | - | - | MIC90 | - | 125 µg/mL
CCCCN(Cc1cn(Cc2ccc(Cl)cc2)nn1)CC(O)(Cn1cncn1)c1ccc(F)cc1F | SC5314 | - | MIC80 | - | <0.125 µg/mL
O=C(CSc1nnc(-c2ccc3ncccc3c2)o1)Nc1nc2ccc(I)cc2s1 | - | agar | MIC | - | 100 µg/mL
Cc1c2n(c3ccccc13)CCN(CC#N)C2 | - | - | MIC90 | - | 250 µg/mL
O=C(N/N=C/c1ccc([N+](=O)[O-])o1)c1ccc(F)cc1 | ATCC 2091 | - | MIC | - | 62.5 µg/mL
COc1c(O)c2c(=O)cc(OC)c3c4c(OC)cc(=O)c5c(O)c(OC)c6c(c(c1CC(C)(O)C6C(C)=O)c23)c54 | - | - | MIC | - | 1.41 µg/mL
CCCCCCCC[n+]1cccc(/C=C/C(=O)c2cccc(OC)c2)c1 | - | - | MIC | - | <7.42 µg/mL
O=C(CSc1nnc(-c2ccc3ncccc3c2)o1)Nc1ccc([N+](=O)[O-])cc1 | - | agar | MIC | - | 100 µg/mL
CSc1nc(C(N)=O)cnc1CC(C)C | ATCC 44859 | - | MIC | - | >31.25 µg/mL
Cc1ccc2nc(NC(=O)CSc3nnc(-c4ccc5ncccc5c4)o3)sc2c1 | - | agar | MIC | - | 100 µg/mL
CCSc1nc(C(N)=S)cnc1CC(C)C | ATCC 44859 | - | MIC | - | >31.25 µg/mL
O=C1C=C(C=Cc2ccccc2)c2ccc(OCCCn3ccnc3)cc2C1 | ATCC 24433 | - | MIC | - | 100 µg/mL
CCCCN(Cc1cn(Cc2ccc(Br)cc2)nn1)CC(O)(Cn1cncn1)c1ccc(F)cc1F | SC5314 | - | MIC80 | - | 4 µg/mL
CC(n1nccn1)C(O)(Cn1cncn1)c1ccc(F)cc1 | TA | - | MIC | - | 100 µg/mL
CC(=O)N1CCN(c2ccc(OC[C@@H]3CO[C@](Cn4ccnc4)(c4ccc5c(c4)SCC(=O)N5C)O3)cc2)CC1 | - | - | MIC | - | 500 µg/mL
O=C(CSc1nnc(-c2ccc3ncccc3c2)o1)Nc1nc2ccc(Cl)cc2s1 | - | agar | MIC | - | 100 µg/mL
CC(n1ccnn1)C(O)(Cn1cncn1)c1ccc(Cl)cc1 | TA | - | MIC | - | 50 µg/mL
CCCCCCCCCOCC(OC)C(=O)O | ATCC 14053 | - | MIC | - | 2600 µM
C[C@H]1[C@H](O)[C@@H](C)/C=C/C=C/C=C/C=C/C=C/C=C/C=C/[C@H](O[C@@H]2O[C@H](C)[C@@H](O)[C@H](N)[C@@H]2O)C[C@@H]2O[C@](O)(C[C@@H](O)C[C@@H](O)CC[C@H](O)[C@@H](O)C[C@@H](O)CC(=O)O[C@H]1C)C[C@H](O)[C@H]2C(=O)O | ATCC64551 | - | MIC | - | 0.25 µg/mL
CCCCN(Cc1cn(Cc2cccc(Cl)c2)nn1)CC(O)(Cn1cncn1)c1ccc(F)cc1F | Y0109 | - | MIC80 | - | 16 µg/mL
COc1cccc(C(=O)/C=C/c2ccccn2)c1 | - | - | MIC | - | <7.1 µg/mL
CCCCCCS(=O)(=O)[C@H](C)[C@](O)(Cn1cncn1)c1ccc(F)cc1F | KB-8 | - | MIC | - | ≤0.013 µg/mL
COc1cccc(C(=O)/C=C/c2ccncc2)c1 | - | - | MIC | - | 17.6 µg/mL
C[C@@H](n1ccnn1)[C@](O)(Cn1cncn1)c1ccc(F)cc1 | TA | - | MIC | - | 100 µg/mL
CCOc1ccc(NC(=O)CSc2nnc(-c3ccc4ncccc4c3)o2)cc1 | - | agar | MIC | - | 25 µg/mL
Cc1ccc(C2NCCn3c2c(C)c2ccccc23)cc1 | - | - | MIC90 | - | 250 µg/mL
O=c1o[nH]cc1-c1ccc(Cl)c(Cl)c1 | ATCC 90028 | - | MIC50 | - | >32 µg/mL
Cc1ccc(C(C)C)cc1 | M1 | - | MIC | - | 0.16–0.32 µg/mL
COc1cc2oc(-c3ccc(O)cc3)cc(=O)c2c(O)c1Oc1ccc(-c2cc(=O)c3c(O)cc(O)cc3o2)cc1 | TM 1768 | broth dilution | MIC | - | 18.11 µM
C[C@@H](SCCCCCCCC(N)=O)[C@](O)(Cn1cncn1)c1ccc(F)cc1F | KB-8 | - | MIC | - | 0.2 µg/mL
Cc1c2n(c3ccccc13)CCNC2c1ccc(Cl)cc1 | - | - | MIC90 | - | 15.62 µg/mL
O=C(NNC(=S)NC1C2CC3CC(C2)CC1C3)C1C2CC3CC(C2)CC1C3 | IFO 0583 | - | MIC | - | 4 µg/mL

A second listing of 11 rows from above:

SMILES	strain	read by	endpoint	setting	value
CC(C)CCC[C@@H](C)[C@H]1CCC2C3C(=O)C=C4C[C@@H](O)CC[C@]4(C)C3CC[C@@]21C	CIP 1663-86	-	MIC50	-	1.5 µg/mL
C[C@@H](SCCCCCCCC(N)=O)[C@](O)(Cn1cncn1)c1ccc(F)cc1F	KB-8	-	MIC	-	0.2 µg/mL
CC(N1CCN(c2ccc(-n3cnnn3)cc2)C1=O)[C@@](O)(Cn1cncn1)c1ccc(F)cc1F	TIMM1756	-	MIC	-	>16 µg/mL
O=c1[nH][nH]c2c1C(c1ccccc1)CC(Cc1ccc3ccccc3c1)=C2	-	agar diffusion	MIC	-	200 µg/mL
O=C(CSc1nnc(-c2ccc3ncccc3c2)o1)Nc1nc2ccc(I)cc2s1	-	agar	MIC	-	100 µg/mL
CCC(C)CCCCCC(C)CCCCCCC(C)OC1C(=O)c2c(O)cc(O)cc2OC1c1ccc(O)cc1	-	-	MIC	-	250 µg/mL
CSc1nc(C(N)=O)cnc1CC(C)C	ATCC 44859	-	MIC	-	>31.25 µg/mL
CCCCN(Cc1cn(Cc2ccc([N+](=O)[O-])cc2)nn1)CC(O)(Cn1cncn1)c1ccc(F)cc1F	Y0109	-	MIC80	-	4 µg/mL
Clc1ccccc1C(c1ccccc1)(c1ccccc1)n1ccnc1	Clinical isolates	-	MIC	48 h	2 µg/mL
C=CCS/C(N)=N/NC(=O)c1ccc([N+](=O)[O-])cc1	-	-	MIC	-	>100 µg/mL
COc1cccc(C(=O)/C=C/c2ccncc2)c1	-	-	MIC	-	17.6 µg/mL